US8829030B2 (priority 2002, dated 2014)

Sequences of proteins named here, by UniProt entry; tags and fusion partners are left off. Residues count along the entry.
UniProt P26663, 2420-3010 limits assumed: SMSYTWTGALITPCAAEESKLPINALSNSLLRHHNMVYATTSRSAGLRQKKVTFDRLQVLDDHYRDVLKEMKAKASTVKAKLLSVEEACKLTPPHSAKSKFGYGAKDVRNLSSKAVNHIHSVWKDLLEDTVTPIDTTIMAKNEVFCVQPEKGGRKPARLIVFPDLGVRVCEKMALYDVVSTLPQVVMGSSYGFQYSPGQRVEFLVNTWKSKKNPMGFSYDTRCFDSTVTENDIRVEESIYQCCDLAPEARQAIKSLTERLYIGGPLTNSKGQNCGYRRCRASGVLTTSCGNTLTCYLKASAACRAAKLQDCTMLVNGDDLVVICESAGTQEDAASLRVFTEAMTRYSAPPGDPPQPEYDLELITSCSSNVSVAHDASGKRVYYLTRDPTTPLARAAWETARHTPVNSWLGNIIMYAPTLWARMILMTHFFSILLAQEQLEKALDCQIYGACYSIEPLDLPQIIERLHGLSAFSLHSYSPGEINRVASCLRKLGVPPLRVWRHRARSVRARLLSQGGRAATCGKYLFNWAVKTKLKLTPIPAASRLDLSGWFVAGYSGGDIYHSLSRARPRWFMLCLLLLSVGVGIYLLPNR

Target: recombinant HCV RNA-dependent RNA polymerase (NS5B protein) (Hepatitis C virus genotype 1b, UniProt P26663)
Assay: In vitro HCV RdRp Flashplate scintillation proximity assay (STREP-FLASH ASSAY)
Type: biochemical, HCV-Bk strain
Settings: read-out: Activity (polymerase activity, IC50)

CC1CCC(F)(C(=O)N(c2cc(-c3ccccc3)sc2C(=O)O)C(C)C)CC1 (stereo not drawn) [Compound 9, Trans-3-[(1-Fluoro-4-methyl-cyclohexanecarbonyl)-isopropyl-amino]-5-phenyl-thiophene-2-carboxylic acid]
IC50: > 20 µM

The match of structure and compound is tentative.
